First the molecules themselves.
B1: BD-751 (protein)
chain 1: QVQLVESGGGVVQPGRSLRLSCAASIFTFSSYAMHWVRQAPGKGPEWLAVISDDGNAKFYADSVKGRFTISRDNSKNTLYLQMNSLRAEDTAVYYCARDGDDIRGYFFDDWGQGTLVTVSS
chain 2: DIQMTQSPSSLSASVGDRVTITCRASQGITNSLAWYQQKPGKAPKLLLYAASRLKSGVPSRFSGSGSGTDYTLTISSLQPEDFATYYCQQYYSTLALTFGGGTKVEVK
B2: BD55-998 (protein)
chain 1: QVQLVQSGAELKKPGASVKVSCKASGYTFSGYGISWVRQAPGQGLEWMGWISAYNGDVNYAQTFQGRVTMTTDTSTNTAYMELRSLRSADTAVYYCARDGEQTNWNYVMVEPLFDLWGQGTLVTVSS
chain 2: QSVLTQPPSASGTPGQRVTISCSGSSSNIGSNFVFWYQQLPGAAPKLLIYRNNQRPSGVPDRFSGSKSGTSASLAISGLRSEDEADYYCAAWDDGLSDPYVFGTGTKVTVL
B3: S2X35 (protein)
chain 1: QVQLVQSGAEVKKPGASVKVSCKASGYTFTNYGISWVRQAPGQGLEWMGWISAYKGNTNYAQKLQGRVTMTTDTSTSTAYMELRSLRSDDTAVYYCARPDYQVLGYDFWIGYYGMDVWGQGTTVIVSS
chain 2: QSVLTQPPSVSGAPGQRVTISCTGSSSNIGAGYDVHWYQQLPGTAPKLLIYGNTNRPSGVPDRFSGSKSGTSASLAITGLQAEDEADYYCQSYDSSLSGSEVVFGGGTKLTVL
B4: BD55-987 (protein)
chain 1: QVQLVQSGAEVKKPGSSVKVSCKASGDTFSRYAITWVRQAPGQGLDWMGRIIPRFGNRNYAQKFQDRVTFTAETSTSSVYMEMSGLRSDDTAVYYCATTPFFSDSGGHYCDFWGQGTLVTVSS
chain 2: EIVLTQSPGTLSFSPGERATLSCRASQSVGGGYLAWYQQKPGQAPRLLIHGVSNRAPGIPDRFSGSGSGTDFTLTIDRLEPEDFAVYYCQQYSRSPRTFGQGTKLEIK
B5: BD55-972 (protein)
chain 1: QVQLVQSGAEVKKPGASVRISCKASGYSISNFAIHWVRQAPGQSLEWVGWINGVNGNRKYSEKFQGRVAITRDTSASTAYMDLSSLRLDDTAIYYCARDPTHPPQPPYYHAGSGQLDYWGQGTLVTVSS
chain 2: DIQMTQSPSSVSASIGDRVTITCRASQPISTYLSWYQQTPGKAPKLLIYNASTLQSGVPSRFVGSGSGTDFALSIYGLQPEDFATYFCQQSFTNPRTFGQGTKVDIK
B6: BD-755 (protein)
chain 1: QVQLVQSGAEVKKPGSSVKVSCKASGGTFSSYSITWVRQAPGQGLEWMGRIFPILGVANHAQKFQGRVRITADKFTSTAYMELSSLRSEDAAIYYCARDSYGPGSQNNWFDPWGQGTLVTVSS
chain 2: QSVLTQPPSVSGAPGQRVTISCTGSDSNIGAGYDVHWYQQLPGTAPKLLISAYSNRPSGVPDRFSGSKSDTSASLAITGLQADDEADYYCQSYDSGLTGEIFGGGTKLTIL
B7: BD-739 (protein)
chain 1: QVQLVQSGAEVKKPGSSVKVSCKASGGSFGSHAVAWVRQAPGQGLEWMGGLIPVFGTANYAQKFQGRVAIITDESSSTAYMELSSLRSEDTAVYYCARGYFDWVLDNWGQGTLVTVSS
chain 2: EIVLTQSPGTLSLSPGERATLSCRASQSVSSRYLAWYQQKPGQAPRLLIYGVSSRATGIPDRFSGSGSGTDFTLTISRLEPEDFAVYFCQQYGTSQVTFGGGTKVEIK
B8: BD-643 (protein)
chain 1: EVQLVESGGGLVQPGGSLRLSCAASGFTFSYAYWVRQVPGKGLLWVSRVNDDGSTNYPDSVKGRFTISRDNARNTLFLQMNSLRAEDTAVYYCVRQSIMTSYYGVDVWGQGTTVTVAS
chain 2: DVVMTQSQLSLPVTLGQPASISCRSSQSLVHSDGNTYLNWFQQRPGQSPRRLIYKVSNRDSGVPDRFSGSGSGTDFTLKISRVEAEDVAVYYCMQGTHWPPTFGGGTKVEIK
B9: BD-801 (protein)
chain 1: DVQLVESGGGLVQPGGSRRLSCAASGFMFSSYWMNWVRQAPGKGLEWVASIKEDGSEKYYVDSVKGRFTISRDNAKNSLFLQMNSLRAEDTAVYYCARKCRGYYDRSGYYYKCAFDIWGQGTMVTVSS
chain 2: YVLTQPPSVSVAPGKTARITCGGNNLGTNSVHWYQQKPGQAPVLVMYYDSDRPSGIPERFSGSNSGNTATLTISRVDAGDEADYYCQVWDSSSDHWVFGGGTKLTVL
B10: BD-796 (protein)
chain 1: QVQLVQSGAEVKKPGSSVKVSCKASGGTFSSYAINWMRQAPGQGLEWMGGIIPILGIPNSAQKFQGRVTITADKSTSTAYMELSSLRSEDTAVYYCARMYNYDSSGLEADAFDIWGQGTMVTVSS
chain 2: QSVLTQPPSVSGAPGQRVTISCTGSSSNIGAGYDVHWYQQLPGTAPKLLIYGNSNRPSGVPDRFSGSKSGTSASLAITGLQAEDEADYYCQSYDSSLSGVVFGGGTKLTVL
B11: BD-791 (protein)
chain 1: QVQLVQSGAEVKKPGSSVKVSCKASGGTFSRFAISWVRQAPGQGLEWMGGIIPMFGTTNYAQKFQGRVSISADESTSTAYMELSSLRSEDTAVYYCATVTHRSGYYGHWYFDLWGRGTLVTVSS
chain 2: DIVMTQTPLSLSVTPGQPASISCKSSQSLLHSDGKTYLYWYLQKPGQSPQLLIYEVSNRFSGVPDRFSGSGSGTDFTLKISRVEAEDVGVYYCMQSIQPPPTFGGGTKVEIK
B12: BD-771 (protein)
chain 1: EVQLVESGGGFVKPGGSLRLSCAASGFKFSDAWMNWVRQAPGKGLEWVGRIKSKADGQTTDYAAPVKGRFSISRDDSKNTLFLQIHNLESDDTAVYYCTTGALVESRYFDWFTGYYFDYWGQGTLVTVSS
chain 2: DIQMTQSPSSLSASVGDRVTITCRTSQGIYNYLAWYQQKPGKVPKLLIYGASTLQSGVPSRFSGSGSGTDFTLTISSLQPEDVATYYCQKYKSAPLTFGGGTKVEIK

Human monoclonal antibodies against the spike receptor-binding domain (heavy:light variable regions). IC50 against pseudoviruses bearing the spike of naturally observed variants; lower = stronger; >10 µg/ml means not reached at the top dose. No active / inactive call. The stated detection limit is 0.0005 µg/ml; values near or below 0.001 µg/ml lie at the floor of the assay.

For one test, the target named is SARS-CoV-2 Omicron BA.1 spike pseudovirus. Description: pseudovirus neutralization IC50; higher = weaker neutralization. Here is the method: (§1)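 Single-round VSV luciferase pseudovirus mixed with antibody dilutions for 1 h and put on Huh-7 cells for about a day; IC50 from the dose curve.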
As to B1, the “pseudovirus neutralization IC50” value stood at 3.99 µg/mL.
B2: the “pseudovirus neutralization IC50” value is greater than 10 µg/mL.
On the same count and under the same terms, under B3 stands greater than 10 µg/mL; under B4, 0.0122 µg/mL; under B5, greater than 10 µg/mL.
On the same count and under the same terms, to B6 belongs 0.368 µg/mL; to B7, greater than 10 µg/mL; to B8, greater than 10 µg/mL.
On the same count and under the same terms, under B9 stands 2.64 µg/mL; under B10, 3.19 µg/mL.
B11: the “pseudovirus neutralization IC50” value is greater than 10 µg/mL.
With B12, the “pseudovirus neutralization IC50” value came to 0.0309 µg/mL.

The next test has as its target SARS-CoV-2 Omicron BA.2 spike pseudovirus. Described as above. Here is the method:
as §1
As to B1, the “pseudovirus neutralization IC50” value is greater than 10 µg/mL.
Still for that read-out and setting: under B2 stands greater than 10 µg/mL.
Same read-out and setting: to B3 belongs greater than 10 µg/mL; to B4, 0.0123 µg/mL.
The same measure, in the same setting: under B5 stands greater than 10 µg/mL; under B6, 0.246 µg/mL; under B7, greater than 10 µg/mL.
B8: the “pseudovirus neutralization IC50” value is greater than 10 µg/mL.
Same read-out and setting: under B9 stands greater than 10 µg/mL.
On the same count and under the same terms, under B10 stands 2.42 µg/mL; under B11, greater than 10 µg/mL; under B12, 0.04 µg/mL.

The target in the next test is SARS-CoV-2 Omicron BA.2.75 spike pseudovirus. The test is described as above. As to the method:
as §1
Take B1: the “pseudovirus neutralization IC50” value was greater than 10 µg/mL.
Still for that read-out and setting: under B2 stands greater than 10 µg/mL; under B3, greater than 10 µg/mL.
The same measure, in the same setting: under B4 stands 0.00728 µg/mL.
For B5, the “pseudovirus neutralization IC50” value was greater than 10 µg/mL.
Still for that read-out and setting: under B6 stands 0.48 µg/mL; under B7, greater than 10 µg/mL.
Turning to B8, the “pseudovirus neutralization IC50” value was greater than 10 µg/mL.
Same read-out and setting: to B9 belongs greater than 10 µg/mL; to B10, 2.03 µg/mL; to B11, greater than 10 µg/mL.
Still for that read-out and setting: under B12 stands greater than 10 µg/mL.

The next test addresses SARS-CoV-2 Omicron BA.5 spike pseudovirus. The description is as above. Here is the method:
as §1
For B1, the “pseudovirus neutralization IC50” value is greater than 10 µg/mL.
For the molecule B2, the “pseudovirus neutralization IC50” value is greater than 10 µg/mL.
Same read-out and setting: under B3 stands greater than 10 µg/mL.
Regarding B4, the “pseudovirus neutralization IC50” value was greater than 10 µg/mL.
Still for that read-out and setting: to B5 belongs greater than 10 µg/mL; to B6, greater than 10 µg/mL; to B7, greater than 10 µg/mL.
Still for that read-out and setting: under B8 stands greater than 10 µg/mL; under B9, greater than 10 µg/mL; under B10, greater than 10 µg/mL.
The same measure, in the same setting: to B11 belongs greater than 10 µg/mL; to B12, greater than 10 µg/mL.

The target of another test is SARS-CoV-2 Omicron BQ.1.1 spike pseudovirus. The description is as above. As to the method:
as §1
With B1, the “pseudovirus neutralization IC50” value was greater than 10 µg/mL.
The same measure, in the same setting: under B2 stands greater than 10 µg/mL; under B3, greater than 10 µg/mL; under B4, greater than 10 µg/mL.
Turning to B5, the “pseudovirus neutralization IC50” value was greater than 10 µg/mL.
Still for that read-out and setting: to B6 belongs greater than 10 µg/mL; to B7, greater than 10 µg/mL.
Regarding B8, the “pseudovirus neutralization IC50” value is greater than 10 µg/mL.
On the same count and under the same terms, under B9 stands greater than 10 µg/mL; under B10, greater than 10 µg/mL; under B11, greater than 10 µg/mL.
On to B12, for which the “pseudovirus neutralization IC50” value is greater than 10 µg/mL.

The target in a further test is SARS-CoV-2 Omicron XBB spike pseudovirus. Described as above. Here is the method: as §1
In the case of B1, the “pseudovirus neutralization IC50” value was greater than 10 µg/mL.
On the same count and under the same terms, to B2 belongs greater than 10 µg/mL.
On the same count and under the same terms, to B3 belongs greater than 10 µg/mL; to B4, greater than 10 µg/mL; to B5, greater than 10 µg/mL.
Regarding B6, the “pseudovirus neutralization IC50” value is greater than 10 µg/mL.
Same read-out and setting: under B7 stands greater than 10 µg/mL.
The same measure, in the same setting: to B8 belongs greater than 10 µg/mL; to B9, greater than 10 µg/mL.
Same read-out and setting: to B10 belongs greater than 10 µg/mL; to B11, greater than 10 µg/mL.
Consider B12, for which the “pseudovirus neutralization IC50” value is greater than 10 µg/mL.

In the next test the target is SARS-CoV-2 early D614G spike pseudovirus. The test is described as above. As to the method: as §1
With B1, the “pseudovirus neutralization IC50” value is 0.473 µg/mL.
The same measure, in the same setting: to B2 belongs greater than 10 µg/mL.
The same measure, in the same setting: to B3 belongs 0.0286 µg/mL; to B4, 0.00133 µg/mL.
The same measure, in the same setting: to B5 belongs 0.013 µg/mL; to B6, 0.08 µg/mL.
As to B7, the “pseudovirus neutralization IC50” value came to 0.469 µg/mL.
As for B8, the “pseudovirus neutralization IC50” value stood at 0.588 µg/mL.
The same measure, in the same setting: to B9 belongs 0.103 µg/mL.
As for B10, the “pseudovirus neutralization IC50” value amounted to 0.25 µg/mL.
Same read-out and setting: under B11 stands 0.104 µg/mL.
Same read-out and setting: to B12 belongs 0.002 µg/mL.

For the origin of these results see the supplement of paper PMC9931576.
